Pooled drug test results. Numbers come from NIAID ChemDB, via PubChem.

Shared fields: tests in culture; agent: HIV-1; method: MTT; measure: EC50

ECn: concentration that inhibits the pathogen or its effect by n%. An empty or dashed field is not shown. Conditions beyond the fields shown may differ between rows.

smiles,cells,strain,changes,value
COc1ccc(N(C)C(=O)[C@H](Cc2cc(F)cc(F)c2)NC(=O)CN2CCN(S(=O)(=O)c3cccc(Cl)c3)CC2=O)cc1,MT-4,IIIB,,0.93 µM
Cc1cn([C@H]2C[C@H](N=[N+]=[N-])[C@@H](CO)O2)c(=O)[nH]c1=O,MT-4,IIIB,E138K,0.019 µM
C=CCNc1nc(Nc2ccc(C#N)cc2F)nc(Oc2ccc(C)cc2)n1,MT-4,IIIB,,4.35 µM
COc1ccc(N(C)C(=O)[C@H](Cc2cc(F)cc(F)c2)NC(=O)CN2CCN(S(=O)(=O)c3ccccc3[N+](=O)[O-])CC2=O)cc1,MT-4,IIIB,,2.84 µM
C=CCOCn1c(Cc2cccc(C(F)(F)F)c2)c(C(C)C)c(=O)[nH]c1=O,MT-4,A17,K103N + Y181C,24 µM
N#Cc1ccc(Nc2nc(Oc3c(Cl)cc(Cl)cc3Cl)ncc2NC(=O)C(F)(F)F)cc1,MT-4,RES056,,24 µM
CCCCCCCCCC(=O)O[C@@]12[C@H](OCOCc3ccccc3)[C@@H](C)[C@@]3(O)[C@@H](C=C(CO)C[C@]4(O)C(=O)C(C)=C[C@@H]34)[C@@H]1C2(C)C,MT-4,IIIB,,0.00027 µg/mL
Cc1ccc(Oc2nc(Nc3ccc(C#N)cc3F)nc(NC(C)C)n2)cc1,MT-4,IIIB,,18.3 µM
Cc1ccc(S(=O)(=O)Nc2nnc(C(C)NS(=O)(=O)c3ccc(Cl)cc3)s2)cc1,MT-4,IIIB,,>60.53 µM
CC(=O)COc1c(Br)c(O)c2c(c1Br)C(=O)C1C=C(C)C=C(O)C1C2=O,MT-2,IIIB,,>18 µM
CC(=O)Nc1cnc(Oc2c(C)cc(C=O)cc2C)nc1Nc1ccc(C#N)cc1,MT-4,IIIB,,29 µM
COc1ccc(S(=O)(=O)Nc2nnc(C(CC(C)C)NS(=O)(=O)c3ccc(C)cc3)s2)cc1,MT-4,IIIB,,9.25 µM
Nc1ccn([C@@H]2CS[C@H](CO)O2)c(=O)n1,MT-4,IIIB,,3.1 µM
Cl.NCCn1nnc2ccccc21,MT-4,IIIB,,>100 µM
CC(C)[C@@H](NC(=O)c1ccccc1)C(=O)N/N=C/c1ccccc1F,MT-4,IIIB,,>366 µM
CN(C)c1nc(Cl)cc(C(C#N)c2c(F)cccc2F)n1,MT-4,IIIB,K103N + Y181C,>80 µM
COC(=O)C(NC(=O)CCCN1C(=O)c2ccccc2C1=O)C(C)C,MT-4,IIIB,,>125 µM
Cc1cc(/C=C/C#N)cc(C)c1Oc1nc(NC2CCN(Cc3cccc(F)c3)CC2)nc2ccsc12,MT-4,IIIB,NNRTI-resistant (RT L100I),0.022 µM
CC(C)[C@H](C)CC[C@](C)(O)[C@H]1C(=O)C[C@H]2[C@@H]3C(=O)C=C4C[C@@H](O)CC[C@]4(C)[C@H]3CC[C@@]21C,MT-4,NL4-3,K65R RI-resistant,0.1393 µM
Cc1cc(C#N)cc(C)c1Oc1nc(NC2CCC(NCc3cccc(C(F)(F)F)c3)CC2)nc2ccsc12,MT-4,IIIB,NNRTI-resistant (RT Y181C),>707 µM
COc1nc(N(C)C)nc(Cc2c(F)cccc2F)c1C,C8166,IIIB,EFV-resistant (K103R V179D P225H),>67 µM
CCO/C(CC(=O)NCc1ccc(OC)cc1)=N\Nc1ccccc1[N+](=O)[O-],MT-4,IIIB,,>30.68 µM
CCOCn1c(Sc2c(Cl)cccc2Cl)cc(=O)[nH]c1=O,MT-4,NL4-3,,>1.7 µg/mL
COc1ccc(/C(C)=N/NC(=O)c2ccncc2)c(OC)c1,MT-4,IIIB,,>12 µM
N#Cc1ccc(Nc2nc(N)nc(Oc3ccc4ccccc4c3Cl)n2)c(F)c1,MT-4,IIIB,,0.709 µM
CCc1c(Cc2cc(C)cc(C)c2)n(COCC#Cc2cccc(CO)c2)c(=O)[nH]c1=O,MT-4,IIIB,Y181C,1.6 µM
O=C(Cl)CCCN1C(=O)c2ccccc2C1=O,MT-4,IIIB,,>52.8 µM
CCOC(=O)CNc1nc(NC(=O)Nc2cccc(C)c2)nc(Oc2cc(=O)oc3ccccc23)n1,MT-4,IIIB,,>14.23 µg/mL
Cc1cc(C=O)cc(C)c1Oc1ncc([N+](=O)[O-])c(Nc2ccc(C#N)cc2)n1,MT-4,RES056,,>37 µM
C=CCOCn1c(Cc2c(F)c(F)cc(F)c2F)c(CC)c(=O)[nH]c1=O,MT-4,A17,K103N + Y181C,44 µM
C=CCNc1nc(Nc2ccc(C#N)cc2F)nc(Oc2ccc3ccccc3c2Cl)n1,MT-4,IIIB,,4.911 µM
Cc1ccnc2c1NC(=O)c1cccnc1N2C1CC1,MT-4,RES056,,4 µM
COc1ccc(CCNc2nc(NC(=O)Nc3ccc(Cl)cc3)nc(Oc3cc(=O)oc4ccccc34)n2)cc1OC,MT-4,IIIB,,>35.43 µg/mL
O=C(CCCN1C(=O)c2ccccc2C1=O)NC(=S)NC(Cc1ccc(O)cc1)C(=O)O,MT-4,IIIB,,>37.82 µM
Cc1cc(C#N)cc(C)c1Oc1nc(NC2CCC(NCc3ccc(S(C)(=O)=O)cc3)CC2)nc2ccsc12,MT-4,RES056,,>75.2 µM
Cc1ccc(C)c(Cn2c(Sc3ccccc3)cc(=O)[nH]c2=O)c1,MT-4,NL4-3,,1.26 µg/mL
COc1ccc(CCNc2nc(NC(=O)Nc3ccc4ccccc4c3)nc(Oc3cc(=O)oc4ccccc34)n2)cc1OC,MT-4,IIIB,,>12.85 µg/mL
CCc1c(Cc2ccccc2C)n(COCC#Cc2ccc(NC(=O)CBr)cc2)c(=O)[nH]c1=O,MT-4,IIIB,EFV-resistant (K103R V179D P225H),>41 µM
C#CCOCn1c(Cc2cc(C(F)(F)F)cc(C(F)(F)F)c2)c(CC)c(=O)[nH]c1=O,MT-4,EFV-resistant (K103R V179D P225H),,>100 µM
CC(C)[C@H](NC(=O)c1ccccc1)C(=O)N/N=C/c1c(F)cccc1F,MT-4,IIIB,,12.1 µM
CCc1c(Cc2cc(C)cc(C)c2)n(COCC#Cc2ccccc2C(F)(F)F)c(=O)[nH]c1=O,MT-4,IIIB,K103N + Y181C,15 µM
CC(C)[C@@H](NC(=O)c1ccccc1)C(=O)N/N=C/c1c(F)cccc1Cl,MT-4,IIIB,,>332 µM
CC(C)CC(NS(=O)(=O)c1ccc(Cl)cc1)c1nnc(NS(=O)(=O)c2ccc(Cl)cc2)s1,MT-4,IIIB,,>59.93 µM
CCNc1nc(Nc2ccc(C#N)cc2F)nc(Oc2ccc3ccccc3c2Cl)n1,MT-4,IIIB,,1.618 µM
CCc1c(Cc2cc(C)cc(C)c2)n(COCC#Cc2cccc(CO[Si](c3ccccc3)(c3ccccc3)C(C)(C)C)c2)c(=O)[nH]c1=O,MT-4,IIIB,Y181C,23 µM
C=CNc1nc(Nc2ccc(C#N)cc2F)nc(Oc2ccc3ccccc3c2Cl)n1,MT-4,IIIB,,1.98 µM
CCc1c(Cc2cc(C)cc(C)c2)n(COC/C(Br)=C(\Br)c2ccccc2)c(=O)[nH]c1=O,MT-4,IIIB,K103N + Y181C,11 µM
COc1ccc(N(C)C(=O)[C@H](Cc2cc(F)cc(F)c2)NC(=O)CN2CCN(S(=O)(=O)c3ccccc3)CC2=O)cc1,MT-4,IIIB,,0.2 µM
CSCC[C@H](C)OC(=O)[C@@H](N)c1ccccc1-c1cccc2ccccc12,MT-4,NL4-3,,31 µM
COc1cccc2c1c(/C(O)=C\C(=O)C(=O)O)cn2Cc1ccc(F)cc1,MT-4,IIIB,,0.59 µM
C=CNc1nc(Nc2ccc(C#N)cc2F)nc(Oc2ccc3ccccc3c2Br)n1,MT-4,IIIB,,1.173 µM
CCOC(=O)CNc1nc(NC(=O)Nc2ccc(Br)cc2)nc(Oc2cc(=O)oc3ccccc23)n1,MT-4,IIIB,,>125 µg/mL
C=CCOCn1c(Cc2cc(C(F)(F)F)cc(C(F)(F)F)c2)c(CC)c(=O)[nH]c1=O,MT-4,A17,K103N + Y181C,>100 µM
CCOC(=O)CNc1nc(Nc2ccc(Cl)cc2)nc(Oc2cc(=O)oc3ccccc23)n1,MT-4,IIIB,,6.86 µg/mL
CCc1c(Cc2cc(C)cc(C)c2)n(COCC#Cc2ccccc2[N+](=O)[O-])c(=O)[nH]c1=O,MT-4,IIIB,EFV-resistant (K103R V179D P225H),>10 µM
Cc1cc(C#N)cc(C)c1Oc1nc(NC2CCC(NCc3ccc([N+](=O)[O-])cc3)CC2)nc2ccsc12,MT-4,IIIB,NNRTI-resistant (RT Y181C),≥2.65 µM
COc1nc(N(C)C)nc(C(C#N)c2c(F)cccc2F)c1C,MT-4,IIIB,,>10 µM
CC(C)=CCc1cc(O)cc2c1OC(C)(C)CC2=O,HeLa + C8166,,,8 µM
Cc1cc(C#N)cc(C)c1Oc1nc(NC2CCC(NCc3ccc(F)cc3)CC2)nc2ccsc12,MT-4,IIIB,NNRTI-resistant (RT E138K),≥1.31 µM
CC(=O)Nc1cnc(Oc2c(Cl)cccc2Cl)nc1Nc1ccc(C#N)cc1,MT-4,IIIB,,32 µM
C=C(C)COCn1c(Cc2cccc(F)c2)c(CC)c(=O)[nH]c1=O,MT-4,N119 (Y181C),,24 µM
COC(=O)c1cc(OC)cc(O)c1C(=O)c1c(O)cc(C)c(C2=CC(C)(C)Oc3c(CC=C(C)C)cc(O)cc32)c1O,HeLa + C8166,,,>100 µM
COC(=O)C(NC(=O)CCCN1C(=O)c2ccccc2C1=O)C(C)O,MT-4,IIIB,,>37.82 µM
COC(=O)c1ccc(CN2CCC(Nc3nc(Oc4c(C)cc(C#N)cc4C)c4ccsc4n3)CC2)cc1,MT-4,IIIB,NNRTI-resistant (RT Y188L),0.158 µM
Cc1cc(C)c(Oc2ncc(N)c(Nc3ccc(C#N)cc3)n2)c(C)c1,MT-4,IIIB,,0.007 µM
CCOC(=O)[C@H](C)NC(O)(Oc1ccccc1)Oc1nc(N(C)C)nc(C(C)c2c(F)cccc2F)c1C,MT-4,,,0.006 µM
CCCCOP(=O)(CN[C@@H](Cc1ccccc1)[C@H](O)CN(CC(C)C)S(=O)(=O)c1ccc(OC)cc1)OCCCC,MT-4,IIIB,,>13.08 µg/mL
CC(NC(=S)NC(=O)CCCN1C(=O)c2ccccc2C1=O)C(=O)O,MT-4,IIIB,,>125 µM
CCc1c(Cc2cc(C)cc(C)c2)n(COCc2cn(-c3cccnc3)nn2)c(=O)[nH]c1=O,MT-4,IIIB,EFV-resistant (K103R V179D P225H),62 µM
CSCCC(NC(=S)NC(=O)CCCN1C(=O)c2ccccc2C1=O)C(=O)O,MT-4,IIIB,,>78.22 µM
COc1cccc(F)c1C(=O)c1nc(N(C)C)nc(OC)c1C,C8166,IIIB,EFV-resistant (K103R V179D P225H),>7.8 µM
CC(C)C(NC(=S)NC(=O)CCCN1C(=O)c2ccccc2C1=O)C(=O)O,MT-4,IIIB,,>26.73 µM
CC(=O)Nc1cnc(Oc2c(C)cc(C#N)cc2C)nc1Nc1ccc(C#N)cc1,MT-4,IIIB,,1.8 µM
CCOP(=O)(CN[C@@H](Cc1ccccc1)[C@H](O)CN(CC(C)C)S(=O)(=O)c1ccc(OC)cc1)OCC,MT-4,RES056,,7.4 µg/mL
Cc1cc(C=O)cc(C)c1Oc1ncc(N)c(Nc2ccc(C#N)cc2)n1,MT-4,RES056,,8.4 µM
Cc1ccc(S(=O)(=O)NC(CC(C)C)c2nnc(N(S(=O)(=O)c3ccc(Cl)cc3)S(=O)(=O)c3ccc(Cl)cc3)s2)cc1,MT-4,IIIB,,>4.09 µM

A second listing of 11 rows from above:

N#Cc1ccc(Nc2nc(N)nc(Oc3ccc4ccccc4c3Cl)n2)c(F)c1 ; cells: MT-4 ; strain: IIIB ; value: 0.709 µM
Cc1cc(/C=C/C#N)cc(C)c1Oc1nc(NC2CCN(Cc3cccc(F)c3)CC2)nc2ccsc12 ; cells: MT-4 ; strain: IIIB ; changes: NNRTI-resistant (RT L100I) ; value: 0.022 µM
CCNc1nc(Nc2ccc(C#N)cc2F)nc(Oc2ccc3ccccc3c2Cl)n1 ; cells: MT-4 ; strain: IIIB ; value: 1.618 µM
COc1ccc(/C(C)=N/NC(=O)c2ccncc2)c(OC)c1 ; cells: MT-4 ; strain: IIIB ; value: >12 µM
O=C(Cl)CCCN1C(=O)c2ccccc2C1=O ; cells: MT-4 ; strain: IIIB ; value: >52.8 µM
COc1ccc(CCNc2nc(NC(=O)Nc3ccc(Cl)cc3)nc(Oc3cc(=O)oc4ccccc34)n2)cc1OC ; cells: MT-4 ; strain: IIIB ; value: >35.43 µg/mL
COc1ccc(CCNc2nc(NC(=O)Nc3ccc4ccccc4c3)nc(Oc3cc(=O)oc4ccccc34)n2)cc1OC ; cells: MT-4 ; strain: IIIB ; value: >12.85 µg/mL
C=CCOCn1c(Cc2c(F)c(F)cc(F)c2F)c(CC)c(=O)[nH]c1=O ; cells: MT-4 ; strain: A17 ; changes: K103N + Y181C ; value: 44 µM
Nc1ccn([C@@H]2CS[C@H](CO)O2)c(=O)n1 ; cells: MT-4 ; strain: IIIB ; value: 3.1 µM
CCc1c(Cc2ccccc2C)n(COCC#Cc2ccc(NC(=O)CBr)cc2)c(=O)[nH]c1=O ; cells: MT-4 ; strain: IIIB ; changes: EFV-resistant (K103R V179D P225H) ; value: >41 µM
CCCCOP(=O)(CN[C@@H](Cc1ccccc1)[C@H](O)CN(CC(C)C)S(=O)(=O)c1ccc(OC)cc1)OCCCC ; cells: MT-4 ; strain: IIIB ; value: >13.08 µg/mL